Pooled drug test results. Numbers come from NIAID ChemDB, via PubChem.

All rows: tests in culture; organism: Candida albicans; read-out: zone

Zone: diameter of growth inhibition. An empty or dashed field is not shown. Neighbouring rows are from separate reports.

{"SMILES": "COc1cc(OC)cc(C2CC(c3ccc(F)cc3)=NN2c2ccc(S(N)(=O)=O)cc2)c1", "strain": "MTCC 227", "method": "agar diffusion / agar", "tested at": "4 mg/mL", "value": "0 mm"}
{"SMILES": "COc1ccccc1/C=N/N=C1/NC(=O)/C(=C\\c2ccccc2OC)S1", "strain": "ATCC 10231", "method": "agar diffusion", "tested at": "200 µg", "value": "9 mm"}
{"SMILES": "CS(=O)(=O)c1nc(N)c(C#N)c(-c2ccccc2Cl)n1", "strain": "MTCC 227", "method": "agar diffusion", "tested at": "100 µg/mL", "value": "20 mm"}
{"SMILES": "C/C=C/N1C(=S)N(CN2CCN(c3ccccc3OC)CC2)NC1C12CC3CC(CC(C3)C1)C2", "strain": "IFO 0583", "method": "agar diffusion / agar", "tested at": "200 µg/disc", "value": "<10 mm"}
{"SMILES": "CS(=O)(=O)c1nc(N)c(C#N)c(-c2ccccc2)n1", "strain": "MTCC 227", "method": "agar diffusion", "tested at": "25 µg/mL", "value": "17 mm"}
{"SMILES": "Cn1cc(CCCNC(=O)CCc2cn(C)c3ccc(Cl)cc23)c2cc(Cl)ccc21", "tested at": "25 µg/mL", "value": "<10 mm"}
{"SMILES": "O=C1N/C(=N/N=C/c2c(Cl)cccc2Cl)S/C1=C/c1ccc([N+](=O)[O-])cc1", "strain": "ATCC 10231", "method": "agar diffusion", "tested at": "200 µg", "value": "12 mm"}
{"SMILES": "N=C1C(=S)N(c2ccc(I)cc2)C(=O)N1c1ccc(Cl)c(C(F)(F)F)c1", "strain": "IMRU-3669", "method": "agar diffusion / agar", "tested at": "5 mg/mL", "value": "14.5 mm"}
{"SMILES": "O=C1N/C(=N/N=C/c2c(Cl)cccc2Cl)S/C1=C/c1c(Cl)cccc1Cl", "strain": "ATCC 10231", "method": "agar diffusion", "tested at": "200 µg", "value": "16 mm"}
{"SMILES": "COc1ccc(C2CC(c3ccc(F)cc3)=NN2c2ccc(S(N)(=O)=O)cc2)c(OC)c1", "strain": "MTCC 227", "method": "agar diffusion / agar", "tested at": "4 mg/mL", "value": "0 mm"}
{"SMILES": "O=C1c2ccccc2C(=O)c2c1cc(O[C@@H]1O[C@H](CO[C@@H]3OC[C@@H](O)[C@H](O)[C@H]3O)[C@@H](O)[C@H](O)[C@H]1O)c(CO)c2O", "method": "agar diffusion", "tested at": "13.3 µg/disc", "value": "0 mm"}
{"SMILES": "O=C1N/C(=N/N=C/c2c(Cl)cccc2Cl)S/C1=C/c1ccc(Br)cc1", "strain": "ATCC 10231", "method": "agar diffusion", "tested at": "200 µg", "value": "9 mm"}
{"SMILES": "N=C1C(=S)N(c2ccc(F)cc2)C(=O)N1c1cc(Cl)c(Cl)cc1Cl", "strain": "IMRU-3669", "method": "agar diffusion / agar", "tested at": "5 mg/mL", "value": "23 mm"}
{"SMILES": "CSC1=NC(c2ccc(O)cc2)C(C#N)=C(N)N1", "strain": "MTCC 227", "method": "agar diffusion", "tested at": "25 µg/mL", "value": "17 mm"}
{"SMILES": "CCOCc1c(O)cc2c(c1O)C(=O)c1ccccc1C2=O", "method": "agar diffusion", "tested at": "13.3 µg/disc", "value": "0 mm"}
{"SMILES": "O=C1N/C(=N/N=C/c2csc(-c3ccccc3)n2)S/C1=C/c1ccc(Br)cc1", "strain": "ATCC 10231", "method": "agar diffusion", "tested at": "200 µg", "value": "0 mm"}
{"SMILES": "Cc1[nH]c2ccc(OC(F)(F)F)cc2c1CNC(=O)CCc1c[nH]c2ccc(Cl)cc12", "tested at": "25 µg/mL", "value": "<10 mm"}
{"SMILES": "CS(=O)(=O)c1nc(N)c(C#N)c(-c2ccc(O)cc2)n1", "strain": "MTCC 227", "method": "agar diffusion", "tested at": "25 µg/mL", "value": "17 mm"}
{"SMILES": "O=C1CS/C(=N/N=C/c2ccc(Cl)cc2Cl)N1", "strain": "ATCC 10231", "method": "agar diffusion", "tested at": "200 µg", "value": "35 mm"}
{"SMILES": "COc1ccc(/C=C/C(=O)c2ccc(C(=O)/C=C/c3ccc(OC)c(OC)c3)cc2)cc1OC", "strain": "ATCC 10231", "method": "agar diffusion / agar", "tested at": "400 µg/mL", "value": "0 mm"}
{"SMILES": "COC1=CC(=O)C[C@@H](C)[C@]12Oc1c(Cl)c(OC)cc(OC)c1C2=O", "method": "agar diffusion", "tested at": "10 µg/mL", "value": "20 mm"}
{"SMILES": "CCN1C(=S)N(CN2CCN(c3ccccc3)CC2)NC1C12CC3CC(CC(C3)C1)C2", "strain": "IFO 0583", "method": "agar diffusion / agar", "tested at": "200 µg/disc", "value": "<10 mm"}
{"SMILES": "Cc1c(O)cc2c(c1O)C(=O)c1ccccc1C2=O", "method": "agar diffusion", "tested at": "13.3 µg/disc", "value": "0 mm"}
{"SMILES": "Cn1cc(CCC(=O)NCc2cn(C)c3ccc(Cl)cc23)c2cc(Cl)ccc21", "tested at": "25 µg/mL", "value": "<10 mm"}
{"SMILES": "COc1ccc(OC)c(C2CC(c3ccc(F)cc3)=NN2c2ccc(S(N)(=O)=O)cc2)c1", "strain": "MTCC 227", "method": "agar diffusion / agar", "tested at": "4 mg/mL", "value": "0 mm"}
{"SMILES": "C/C=C/N1C(=S)N(CN2CCN(c3ccccc3)CC2)NC1C12CC3CC(CC(C3)C1)C2", "strain": "IFO 0583", "method": "agar diffusion / agar", "tested at": "200 µg/disc", "value": "<10 mm"}
{"SMILES": "COC1=CC(=O)C[C@@H](C)[C@]12Oc1c(Cl)c(OC)cc(OC)c1C2=O", "strain": "IMRU-3669", "method": "agar diffusion / agar", "tested at": "5 mg/mL", "value": "23 mm"}
{"SMILES": "CS(=O)(=O)C1=NC(c2cccc3cc4ccccc4cc23)C(C#N)=C(N)N1", "strain": "MTCC 227", "method": "agar diffusion", "tested at": "25 µg/mL", "value": "17 mm"}
{"SMILES": "O=C1N/C(=N/N=C/c2c(Cl)cccc2Cl)S/C1=C/c1coc2ccc(Cl)cc2c1=O", "strain": "ATCC 10231", "method": "agar diffusion", "tested at": "200 µg", "value": "0 mm"}
{"SMILES": "CCN1C(=S)N(CN2CCN(c3ccccn3)CC2)NC1C12CC3CC(CC(C3)C1)C2", "strain": "IFO 0583", "method": "agar diffusion / agar", "tested at": "200 µg/disc", "value": "<10 mm"}
{"SMILES": "N=C1C(=S)N(c2cccc(F)c2)C(=O)N1c1ccc(F)cc1", "strain": "IMRU-3669", "method": "agar diffusion / agar", "tested at": "5 mg/mL", "value": "19 mm"}
{"SMILES": "O=C(/C=C/c1ccccc1O)c1ccc(C(=O)/C=C/c2ccccc2O)cc1", "strain": "ATCC 10231", "method": "agar diffusion / agar", "tested at": "400 µg/mL", "value": "0 mm"}
{"SMILES": "N=C1C(=S)N(c2ccc(F)cc2)C(=O)N1c1ccc(Cl)c(C(F)(F)F)c1", "strain": "IMRU-3669", "method": "agar diffusion / agar", "tested at": "5 mg/mL", "value": "17 mm"}
{"SMILES": "C/C=C/C1=CC2=CC(=O)[C@](C)(OC(=O)c3c(C)cc(O)cc3OC)C(=O)C2=CO1", "strain": "ATCC 64548", "method": "agar diffusion", "tested at": "50 µg/disc", "value": "0 mm"}
{"SMILES": "O=C(/C=C/c1ccc(Br)cc1)c1ccc(C(=O)/C=C/c2ccc(Br)cc2)cc1", "strain": "ATCC 10231", "method": "agar diffusion / agar", "tested at": "400 µg/mL", "value": "0 mm"}
{"SMILES": "N=C1C(=S)N(c2ccc(F)cc2)C(=O)N1CCCCCCN1C(=N)C(=S)N(c2ccc(F)cc2)C1=O", "strain": "IMRU-3669", "method": "agar diffusion / agar", "tested at": "5 mg/mL", "value": "16.5 mm"}
{"SMILES": "O=C(CCc1c[nH]c2ccc(Cl)cc12)NCc1c[nH]c2ccc(Cl)cc12", "tested at": "25 µg/mL", "value": "<10 mm"}

Repeating the final 4 entries:

SMILES,strain,method,tested at,value
C/C=C/C1=CC2=CC(=O)[C@](C)(OC(=O)c3c(C)cc(O)cc3OC)C(=O)C2=CO1,ATCC 64548,agar diffusion,50 µg/disc,0 mm
O=C(/C=C/c1ccc(Br)cc1)c1ccc(C(=O)/C=C/c2ccc(Br)cc2)cc1,ATCC 10231,agar diffusion / agar,400 µg/mL,0 mm
N=C1C(=S)N(c2ccc(F)cc2)C(=O)N1CCCCCCN1C(=N)C(=S)N(c2ccc(F)cc2)C1=O,IMRU-3669,agar diffusion / agar,5 mg/mL,16.5 mm
O=C(CCc1c[nH]c2ccc(Cl)cc12)NCc1c[nH]c2ccc(Cl)cc12,,,25 µg/mL,<10 mm